Measured values from several laboratories, pooled; numbers as filed in NIAID ChemDB.

Shared fields: toxicity to cultured cells; measure: CC50

Blank or dashed fields: not listed here.

smiles | method | cells | value
O=C(NC(=S)Nc1nc(Cl)cc(Cl)n1)c1ccc(-c2ccccc2Cl)o1 | MTS | MDCK | >300 µM
CN(C)C(=S)Oc1ccc(Cl)cc1C(=O)Nc1ccc(Cl)cc1 | MTT | HepG2 cell | 83.51 µM
CCc1cn([C@H]2C[C@H](N=[N+]=[N-])[C@@H](CO)O2)c(=O)[nH]c1=O | - | CFU-GM | 1 µM
CO[C@H]1C[C@H](O[C@H]2[C@@H](O)C[C@H](O[C@H]3[C@@H](O)C[C@H](O[C@H]4CC[C@@]5(C)[C@H](CC[C@@H]6[C@@H]5CC[C@]5(C)[C@@H](C7=CC(=O)OC7)CC[C@]65O)C4)O[C@@H]3C)O[C@@H]2C)O[C@H](C)[C@H]1O | MTT | GMK AH1 | >250 µM
CC(=O)OC1CN2CCC1CC2 | - | HeLa | 300–400 µg/mL
C[C@@H]1[C@H](O)[C@@H](C)/C=C/C=C/CC/C=C/C=C/C=C/C=C/C(O[C@H]2O[C@H](C)[C@@H](O)[C@H](N)[C@@H]2O)CC2O[C@](O)(CC(O)C(O)CCC(O)CC(O)CC(O)CC(=O)O[C@H]1C)CC(O)C2C(=O)O | - | Valsa mali | 12.3 µM
Cc1cn([C@H]2C=C[C@@H](CO)O2)c(=O)[nH]c1=O | - | BFU-E | 10 µM
CCCCCC(=O)O[C@H]1C[C@H](n2cc(/C=C/Br)c(=O)[nH]c2=O)O[C@@H]1COP1(=O)OCc2cccc(C)c2O1 | - | P3HR-1 | >326 µM
OC[C@@H]1CC[C@H](n2cnc3c(NC4CCCCCC4)nc(Cl)nc32)O1 | - | Sheep chondrocytes G81092 | 125 µM
Cc1cn([C@H]2C[C@@H](CCl)[C@@H](CO)O2)c(=O)[nH]c1=O | trypan blue | PBMC | >100 µM
CN(C(=O)Oc1ccc(Cl)cc1C(=O)Nc1ccc(C(F)(F)F)cc1)c1ccccc1 | MTT | HepG2 cell | >100 µM
COC1=CC(=O)N(C(=O)C2CSC(C(CO)NC(=O)c3csc(C=NO)n3)=N2)C1 | - | HeLa | 100 µg/mL
CO[C@H]1[C@@H](O)C[C@H](O[C@H]2[C@@H](O)C[C@H](O[C@H]3[C@@H](O)C[C@H](O[C@H]4CC[C@@]5(C)[C@H](CC[C@@H]6[C@@H]5CC[C@]5(C)[C@@H](C7=CC(=O)OC7)CC[C@]65O)C4)O[C@@H]3C)O[C@@H]2C)O[C@@H]1C | MTT | GMK AH1 | >250 µM
Nc1ccn([C@H]2CC[C@@H](CO)O2)c(=O)n1 | - | BFU-E | 1 µM
Nc1ccn([C@H]2CC[C@@H](CO)O2)c(=O)n1 | - | NHDF | >100 µM
CC12OC[C@H]3O[C@H](C[C@@H]3N=[N+]=[N-])N1C(=O)NC(=O)[C@@]2(C)Br | - | CMBC | 80 µM
Nc1ccn([C@@H]2CC[C@H](CO)O2)c(=O)n1 | - | IM9 | 33 µM
Nc1ccn([C@H]2CC[C@@H](CO)O2)c(=O)n1 | - | Macrophage | 67.5 µM
CO[C@H]1C[C@H](O[C@H]2CC[C@]3(C=O)[C@H]4CC[C@]5(C)[C@@H](C6=CC(=O)OC6)CC[C@]5(O)[C@@H]4CC[C@]3(O)C2)O[C@H](C)[C@H]1O[C@@H]1O[C@H](CO[C@@H]2O[C@H](CO)[C@@H](O)[C@H](O)[C@H]2O)[C@@H](O)[C@H](O)[C@H]1O | MTT | GMK AH1 | >250 µM
OC[C@@H]1CC[C@H](n2cnc3c(NC4CC4)nc(Cl)nc32)O1 | - | Sheep chondrocytes G81092 | 180 µM
CC(=O)O[C@H]1[C@@H](O)C[C@H](O[C@H]2[C@@H](O)C[C@H](O[C@H]3[C@@H](O)C[C@H](O[C@H]4CC[C@@]5(C)[C@H](CC[C@@H]6[C@@H]5CC[C@]5(C)[C@@H](C7=CC(=O)OC7)CC[C@]65O)C4)O[C@@H]3C)O[C@@H]2C)O[C@@H]1C | MTT | GMK AH1 | >250 µM
Nc1ccn([C@@H]2C[C@H](CO)[C@@H](O)[C@H]2O)c(=O)n1 | trypan blue | HeLa | 200 µg/mL
Cc1cn([C@H]2C[C@H](N=[N+]=[N-])[C@@H](CO)O2)c(=O)[nH]c1=O | trypan blue | PBMC | >100 µM
CCCCC[C@@H]1OC(=O)CNC(=O)[C@H]([C@@H](C)CC)NC(=O)[C@@H]2CCCN2C(=O)[C@H]([C@@H](C)CC)OC(=O)[C@H](Cc2ccccc2)N(C)C(=O)[C@H](C(C)C)NC(=O)C1(C)C | MTT | HT-29 | 67 µM
COC(=O)[C@H]1[C@@H]2CON=C2c2cc3c(cc2[C@H]1C1=CC(=O)C(=O)C(OC)=C1)OCO3 | - | P-388 | 12 µM
C[C@H]1O[C@@H](O[C@H]2CC[C@]3(C=O)[C@H]4CC[C@]5(C)[C@@H](C6=CC(=O)OC6)CC[C@]5(O)[C@@H]4CC[C@]3(O)C2)C[C@H](O)[C@@H]1O | MTT | GMK AH1 | >250 µM
O=c1[nH]cnc2c1ncn2[C@H]1CC[C@@H](CO)O1 | - | CFU-E | 93 µM
C#Cc1c(C(N)=O)ncn1[C@@H]1O[C@H](CO)[C@@H](O)[C@H]1O | MTT / neutral red | LLC-MK2 | 4.3 µg/mL
Nc1nccc2c1ncn2[C@@H]1C=C[C@@H](O)[C@H]1O | - | PRK | 8.9 µg/mL
O=c1[nH]c(=O)n([C@H]2C[C@H](O)[C@@H](CO)O2)c[c]1[Hg+].OCC(O)C[S-] | trypan blue | HELA TK- | 15 µg/mL
COC1=CC([C@@H]2c3cc4c(cc3[C@H](O)[C@@H]3COC(=O)[C@H]32)OCO4)=CC(=O)C1=O | - | HT-29 | 1.3 µM
CC(=O)O[C@H]1C(=O)[C@@]2(C)[C@H]([C@H](OC(=O)c3ccccc3)[C@]3(O)C[C@H](OC(=O)[C@H](O)[C@@H](NC(=O)c4ccccc4)c4ccccc4)C(C)=C1C3(C)C)[C@]1(OC(C)=O)CO[C@@H]1C[C@@H]2O | MTT | HT-29 | 0.007 µM
C[C@H]1O[C@@H](c2ccc3c(c2O)C(=O)C2=C(C3=O)[C@@]3(O)C(=O)C[C@](C)(O)C[C@@]3(O)C=C2)C[C@@H](O)[C@@H]1O | - | HeLa | 43 µM
COc1cc(OC)nc(NC(=S)NC(=O)COc2ccc(Cl)cc2Cl)n1 | MTS | MDCK | >300 µM
O=c1[nH]c(=O)n([C@H]2C[C@H](O)[C@@H](CO)O2)c[c]1[Hg+].O[C@H](C[S-])[C@H](O)CS | trypan blue | HELA TK- | 48.8 µg/mL
COC(=O)[C@@H]1[C@H](c2cc(OC)c3nc4ccccc4nc3c2)c2cc3c(cc2C2=NOC[C@@H]21)OCO3 | - | MEL-28 | 10 µM
Nc1ncnc2c1ncn2C[C@@H](CO)OCP(=O)(O)O | trypan blue | HeLa | >125 µg/mL
OC[C@H]1O[C@@H](n2cnc3c(NC4CC4)ncnc32)[C@H](O)[C@@H]1O | MTT | Sheep chondrocytes G81092 | 105 µM
OC[C@@H](O)C(O)[C@H](O)CO | - | HeLa | >200 µg/mL
COc1cc(C)nc(NC(=S)NC(=O)c2ccc(-c3ccccc3Cl)o2)n1 | MTS | MDCK | >300 µM
Nc1ncnc2c1ncn2[C@@H]1C=C(CO)[C@@H](O)[C@H]1O | trypan blue | HeLa | 20 µg/mL
Cc1cc(=O)nc2nc(NC(=O)c3ccc(-c4ccc([N+](=O)[O-])cc4)o3)sn12 | MTS | MDCK | >300 µM
O=C(Nc1ccc(F)cc1)c1cc(Cl)ccc1OC(=O)N(c1ccccc1)c1ccccc1 | MTT | HepG2 cell | >100 µM
COC1=CC(=O)C[C@@H](C)[C@]12Oc1c(Cl)c(OC)cc(OC)c1C2=O | - | HeLa | 75 µg/mL
OC[C@H]1O[C@@H](n2cnc3c(NC4CC4)cc(Cl)nc32)C[C@@H]1O | MTT | Sheep chondrocytes G81092 | 236 µM
Cc1cc(C)nc(NC(=S)NC(=O)C2C(/C=C(/Cl)C(F)(F)F)C2(C)C)n1 | MTS | MDCK | >300 µM
Cc1cn([C@H]2C[C@@H](CO)[C@@H](COC(c3ccccc3)(c3ccccc3)c3ccccc3)O2)c(=O)[nH]c1=O | trypan blue | PBMC | >100 µM
C[C@H]1O[C@@H](O[C@H]2[C@@H](O)C[C@H](O[C@H]3CC[C@@]4(C)[C@H](CC[C@@H]5[C@@H]4CC[C@]4(C)[C@@H](C6=CC(=O)OC6)CC[C@]54O)C3)O[C@@H]2C)C[C@H](O)[C@@H]1O | MTT | GMK AH1 | >250 µM
Nc1ncnc2c1ncn2[C@H]1C[C@H](O)[C@@H](CO)O1 | - | MDBK | 250 µM
CCCC1CCC(=C2C(=O)CCC2=O)O1 | - | HeLa | 200 µg/mL
CC(=O)NC[C@H]1CN(c2ccc(N3CCN(c4nc5ccccc5[nH]4)CC3)c(F)c2)C(=O)O1 | MTT | THP-1 | >100 µg/mL
COc1cc([C@@H]2c3cc4c(cc3[C@H](OC(C)=O)[C@@H]3COC(=O)[C@H]23)OCO4)cc(OC)c1O | - | HT-29 | 0.23 µM
C#CCCC[C@@H]1OC(=O)CNC(=O)[C@H]([C@@H](C)CC)NC(=O)[C@@H]2CCCN2C(=O)[C@H]([C@@H](C)CC)OC(=O)[C@H](Cc2ccccc2)N(C)C(=O)[C@H](C(C)C)NC(=O)C1(C)C | MTT | MCF-7 | 13 µM
Cc1cccc2c1OP(=O)(OC[C@H]1O[C@@H](n3cc(/C=C/Br)c(=O)[nH]c3=O)C[C@@H]1OC(=O)C(C)(C)C)OC2 | - | P3HR-1 | 57 µM
CN(C)C(=O)Oc1ccc(Cl)cc1C(=O)Nc1ccc(F)cc1 | MTT | HepG2 cell | 444.5 µM
O=C(NC(=S)Nc1nc(Cl)cc(Cl)n1)c1ccc(-c2ccc([N+](=O)[O-])cc2)o1 | MTS | MDCK | >300 µM
COc1cc([C@@H]2c3cc4c(cc3[C@H](OC(C)=O)[C@@H]3COC(=O)[C@@H]23)OCO4)cc2c1OC1(N3CCOCC3)CCCCC1O2 | - | HT-29 | 8.66 µM
Nc1nc(=O)n([C@@H]2CC[C@H](CO)O2)cc1F | - | Macrophage | >100 µM
Nc1ccn([C@H]2CC[C@@H](CO)O2)c(=O)n1 | - | 2.2.15 | >200 µM
Nc1cc(Cl)nc2c1ncn2[C@H]1C[C@H](O)[C@@H](CO)O1 | - | Sheep chondrocytes G81092 | >400 µM
NC(=NC1CCC1)c1ccc(-c2ccc(-c3ccc(C(N)=NC4CCC4)cc3)o2)cc1 | - | A2780 ovarian carcinoma | 11 µM
Nc1ncn([C@@H]2O[C@H](CO)[C@@H](O)[C@H]2O)c(=O)n1 | MTT | H9rAZT2000 | 566 µM
CC(C)(C)NC(=O)NC(=S)NC(=O)C1C(/C=C(/Cl)C(F)(F)F)C1(C)C | MTS | MDCK | >300 µM
OC[C@H]1O[C@@H](n2cnc3c(NC4CCCC4)nc(Cl)cc32)[C@H](O)[C@@H]1O | - | MDBK | 228 µM
CCCCCCCCCC(=O)O[C@H]1C[C@H](n2cc(/C=C/Br)c(=O)[nH]c2=O)O[C@@H]1COP1(=O)OCc2cccc(C)c2O1 | - | P3HR-1 | >299 µM
Nc1nccc2c1ncn2[C@@H]1C=C(CO)[C@@H](O)[C@H]1O | - | MA-104 | 400 µg/mL
COc1cc(Cl)nc(NC(=S)NC(=O)c2cccnc2Cl)n1 | MTS | MDCK | >300 µM
Nc1nc2c(ncn2CCC(CO)CO)c(=O)[nH]1 | - | P3HR-1 | >100 µg/mL
OC[C@@H]1C[C@@H](O)[C@H](n2cnc3c(NC4CCCCCC4)ccnc32)O1 | MTT | Sheep chondrocytes G81092 | 210 µM
O=c1[nH]c(=O)n([C@H]2C[C@H](O)[C@@H](CO)O2)c[c]1[Hg+].O=c1cc[nH]c(=S)[nH]1 | trypan blue | HELA TK- | >115 µg/mL
CC(=O)NC[C@H]1CN(c2ccc(N3CCN(c4nc(Cl)cc(Cl)n4)CC3)c(F)c2)C(=O)O1 | MTT | THP-1 | 11.6 µg/mL
Nc1ncnc2c1ncn2CCOCP(=O)(O)O | - | NHDF | 650 µM

A second listing of 10 rows from above:

smiles,method,cells,value
CCCCCCCCCC(=O)O[C@H]1C[C@H](n2cc(/C=C/Br)c(=O)[nH]c2=O)O[C@@H]1COP1(=O)OCc2cccc(C)c2O1,-,P3HR-1,>299 µM
Nc1nc(=O)n([C@@H]2CC[C@H](CO)O2)cc1F,-,Macrophage,>100 µM
C[C@@H]1[C@H](O)[C@@H](C)/C=C/C=C/CC/C=C/C=C/C=C/C=C/C(O[C@H]2O[C@H](C)[C@@H](O)[C@H](N)[C@@H]2O)CC2O[C@](O)(CC(O)C(O)CCC(O)CC(O)CC(O)CC(=O)O[C@H]1C)CC(O)C2C(=O)O,-,Valsa mali,12.3 µM
C[C@H]1O[C@@H](c2ccc3c(c2O)C(=O)C2=C(C3=O)[C@@]3(O)C(=O)C[C@](C)(O)C[C@@]3(O)C=C2)C[C@@H](O)[C@@H]1O,-,HeLa,43 µM
C#Cc1c(C(N)=O)ncn1[C@@H]1O[C@H](CO)[C@@H](O)[C@H]1O,MTT / neutral red,LLC-MK2,4.3 µg/mL
Cc1cn([C@H]2C[C@@H](CO)[C@@H](COC(c3ccccc3)(c3ccccc3)c3ccccc3)O2)c(=O)[nH]c1=O,trypan blue,PBMC,>100 µM
O=C(NC(=S)Nc1nc(Cl)cc(Cl)n1)c1ccc(-c2ccc([N+](=O)[O-])cc2)o1,MTS,MDCK,>300 µM
Nc1ccn([C@H]2CC[C@@H](CO)O2)c(=O)n1,-,BFU-E,1 µM
C[C@H]1O[C@@H](O[C@H]2CC[C@]3(C=O)[C@H]4CC[C@]5(C)[C@@H](C6=CC(=O)OC6)CC[C@]5(O)[C@@H]4CC[C@]3(O)C2)C[C@H](O)[C@@H]1O,MTT,GMK AH1,>250 µM
Nc1ccn([C@@H]2C[C@H](CO)[C@@H](O)[C@H]2O)c(=O)n1,trypan blue,HeLa,200 µg/mL

Neighbouring rows are from separate reports. CCn: concentration that lowers growth or viability of the cells by n%. Two numbers with a dash give a range or band.